From ChEMBL document CHEMBL5214907 (J Med Chem, 2021)

Protein sequences, listed by entry. Tags and fused reporters are not part of them. Residues count along the entry.
UniProt P43144, 26-479 limits assumed: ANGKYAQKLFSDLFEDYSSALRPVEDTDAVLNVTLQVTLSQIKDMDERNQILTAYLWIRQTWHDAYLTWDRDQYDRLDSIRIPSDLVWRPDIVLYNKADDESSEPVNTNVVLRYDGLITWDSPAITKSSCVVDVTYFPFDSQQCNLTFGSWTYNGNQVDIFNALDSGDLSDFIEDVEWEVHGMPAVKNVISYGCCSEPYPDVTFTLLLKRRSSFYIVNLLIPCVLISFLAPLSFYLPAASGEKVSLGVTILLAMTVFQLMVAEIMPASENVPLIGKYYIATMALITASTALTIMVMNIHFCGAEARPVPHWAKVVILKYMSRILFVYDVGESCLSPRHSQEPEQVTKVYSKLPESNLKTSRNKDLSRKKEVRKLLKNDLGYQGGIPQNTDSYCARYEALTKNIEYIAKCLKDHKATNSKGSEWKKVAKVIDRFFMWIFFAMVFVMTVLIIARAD
UniProt Q9JLB5, 25-447 limits assumed: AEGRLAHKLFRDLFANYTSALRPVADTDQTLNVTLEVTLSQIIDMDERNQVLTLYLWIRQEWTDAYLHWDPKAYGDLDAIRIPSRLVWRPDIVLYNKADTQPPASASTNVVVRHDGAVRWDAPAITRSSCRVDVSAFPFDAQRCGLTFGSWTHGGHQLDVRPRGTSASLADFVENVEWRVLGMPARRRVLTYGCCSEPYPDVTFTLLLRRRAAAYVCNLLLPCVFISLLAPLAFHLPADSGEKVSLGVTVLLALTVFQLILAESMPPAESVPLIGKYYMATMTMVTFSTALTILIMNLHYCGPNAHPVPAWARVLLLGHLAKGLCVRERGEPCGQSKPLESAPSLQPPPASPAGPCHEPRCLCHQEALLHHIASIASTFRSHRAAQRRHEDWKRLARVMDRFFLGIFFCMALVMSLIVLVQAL
UniProt Q9UGM1, 23-479 limits assumed: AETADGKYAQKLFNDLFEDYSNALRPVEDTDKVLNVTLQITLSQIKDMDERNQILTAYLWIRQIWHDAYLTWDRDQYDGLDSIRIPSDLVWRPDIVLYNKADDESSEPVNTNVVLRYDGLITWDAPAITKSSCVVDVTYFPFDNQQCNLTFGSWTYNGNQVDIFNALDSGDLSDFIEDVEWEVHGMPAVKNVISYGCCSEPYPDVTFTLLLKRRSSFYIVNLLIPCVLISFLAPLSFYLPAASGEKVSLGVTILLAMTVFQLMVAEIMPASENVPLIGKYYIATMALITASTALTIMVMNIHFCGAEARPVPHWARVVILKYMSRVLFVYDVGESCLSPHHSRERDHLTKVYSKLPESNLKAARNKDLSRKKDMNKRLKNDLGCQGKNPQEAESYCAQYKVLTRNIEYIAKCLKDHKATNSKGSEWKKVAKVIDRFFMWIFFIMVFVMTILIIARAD
UniProt Q9GZZ6, 25-450 limits assumed: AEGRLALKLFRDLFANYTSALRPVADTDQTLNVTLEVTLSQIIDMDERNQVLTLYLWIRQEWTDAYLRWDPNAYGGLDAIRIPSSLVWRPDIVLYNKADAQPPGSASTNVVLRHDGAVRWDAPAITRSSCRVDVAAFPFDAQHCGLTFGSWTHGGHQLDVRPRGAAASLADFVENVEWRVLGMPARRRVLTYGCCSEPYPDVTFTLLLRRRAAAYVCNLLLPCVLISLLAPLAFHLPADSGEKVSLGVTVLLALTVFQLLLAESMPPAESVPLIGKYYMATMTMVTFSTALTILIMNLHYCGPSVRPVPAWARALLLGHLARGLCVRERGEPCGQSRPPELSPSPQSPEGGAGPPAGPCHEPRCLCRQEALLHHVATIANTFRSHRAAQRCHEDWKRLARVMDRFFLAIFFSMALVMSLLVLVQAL

Columns and labels:
[1] = biological target: Nicotinic acetylcholine receptor alpha9/alpha10 (Rattus norvegicus, UniProt P43144+Q9JLB5); experiment: Inhibition of rat alpha9alpha10 nAChR expressed in xenopus oocytes assessed as inhibition of Ach- induced response incubated for 5 mins in presence of Ach stimulation by voltage-clamp based electrophysiological method; conditions: oocyte
[2] = biological target: Neuronal acetylcholine receptor; alpha9/alpha10 (Homo sapiens, UniProt Q9UGM1+Q9GZZ6); conditions: oocyte

`N=C(N)NCCC[C@H](NC(=O)[C@@H]1C/C=C\C[C@@H]2NC(=O)[C@@H](NC(=O)CN)CSSC[C@H](NC(=O)[C@H](CCCNC(=N)N)NC(=O)[C@@H]3CCCN3C(=O)[C@H](CC(=O)O)NC(=O)[C@H](CO)NC2=O)C(=O)N[C@@H](CCCNC(N)=O)C(=O)N[C@@H](Cc2ccc(O)cc2)C(=O)N[C@@H](CCCNC(=N)N)C(=O)N1)C(=O)O` gave an IC50 [1] of 1.47 nM.

`N=C(N)NCCC[C@H](NC(=O)[C@@H]1C/C=C/C[C@@H]2NC(=O)[C@@H](NC(=O)CN)CSSC[C@H](NC(=O)[C@H](CCCNC(=N)N)NC(=O)[C@@H]3CCCN3C(=O)[C@H](CC(=O)O)NC(=O)[C@H](CO)NC2=O)C(=O)N[C@@H](CCCNC(N)=O)C(=O)N[C@@H](Cc2ccc(O)cc2)C(=O)N[C@@H](CCCNC(=N)N)C(=O)N1)C(=O)O` showed an IC50 [1] of 1.15 nM.

Work on `C[C@@H](O)[C@@H]1NC(=O)[C@@H]2CSSC(C)(C)[C@@H](C(=O)N[C@@H](Cc3ccc(O)cc3)C(=O)O)NC(=O)[C@H](CCC(N)=O)NC(=O)[C@H](Cc3ccc(O)c(I)c3)NC(=O)[C@H](CCCNC(N)=O)NC(=O)[C@H](CSSC[C@@H](NC(=O)CN)C(=O)N2)NC(=O)[C@H](CCCNC(=N)N)NC(=O)[C@@H]2CCCN2C(=O)[C@H](CC(=O)O)NC1=O` yielded an IC50 [2] of 24 nM.

In the case of `C[C@@H](O)[C@@H]1NC(=O)[C@@H]2CSSC[C@@H](C(=O)N[C@@H](Cc3ccc(O)cc3)C(=O)O)NC(=O)[C@H](CCC(N)=O)NC(=O)[C@H](Cc3ccc(O)c(I)c3)NC(=O)[C@H](CCCNC(N)=O)NC(=O)[C@H](CSSC(C)(C)[C@@H](NC(=O)CN)C(=O)N2)NC(=O)[C@H](CCCNC(=N)N)NC(=O)[C@@H]2CCCN2C(=O)[C@H](CC(=O)O)NC1=O`, the IC50 [2] is reported as over 1200 nM.
